In this data set the test system is human skin explants or xenograted human skin. Description: Confocal imaging of fluorescent dye distribution in ETA-desquamated skin (Example 2). Conditions: toxin treated skin. The procedure:
Human skin samples were fixed in 10% formaldehyde overnight and then embedded in paraffin. Samples were cut using a microtome to a thickness of 6 μM and baked on slides for 1 hour in a dry heat incubator at 58° C. Nuclei and eosinophillic structures were visualized by hematoxylin and eosin staining, respectively. The hematoxylin stains nuclei blue and eosins stains eosinophillic structures different shades of red. Histological images were taken with an inverted microscope.
The skin was either subjected to no treatment or application of ETA at 100 μg/mL.
To image the distribution of each dye in the human skin, human skin specimens were collected at 6, 12, 18 and 24 hours. Ordinary skin with intact S.C. and desquamated skin using ETA (methods previously described) were used. Frozen sections of human skin specimens were cut using a microtome to a thickness of 7 μM and DAPI was used for counter staining. Skin imaging was carried out at room temperature using Nikon confocal microscope equipped with NIS-Elements AR 3.10 software.

The record followed here is patent US11045520B2, “Compositions and methods for topical delivery of pharmaceutical agents” (priority 2016, dated 2021).

For the substance Dextran, the “penetration of the dye at 24 hours” value is listed as “deep penetration of the dye”.
